Pooled drug test results. Numbers come from NIAID ChemDB, via PubChem.

Common to all: growth or infection tests; organism: HIV-1; method: cytopathic effect / MTT; measure: EC50

ECn: concentration that inhibits the pathogen or its effect by n%.

SMILES | strain | changes | cell line | result
Nc1nc(NC2CC2)c2ncn([C@H]3C=C[C@@H](CO)C3)c2n1 |  | RT-Q151M | MT-2 | 5.5 µM
Cc1cn([C@H]2C[C@H](N=[N+]=[N-])[C@@H](CO)O2)c(=O)[nH]c1=O | IIIB |  | MT-4 | 0.003 µM
c1ncc(CN2CCCNCCNCCCNCC2)cc1CN1CCCNCCNCCCNCC1 | NL4-3 |  | MT-4 | 1 µg/mL
CC(C)Nc1cccnc1N1CCN(C(=O)c2cc3cc(NS(C)(=O)=O)ccc3[nH]2)CC1 |  | RT-K103N | MT-4 | 2.5 µM
Nc1cc(Nc2cccc3ccccc23)nc(Cl)n1 | IIIB |  | MT-4 | >7.6 µM
O=C(Cc1ccc(Cl)cc1)OCC1Nc2ccccc2S(=O)(=O)n2cccc21 | IIIB |  | MT-4 | 72 µM
Cc1cn([C@H]2C[C@H](N=[N+]=[N-])[C@@H](CO)O2)c(=O)[nH]c1=O | IIIB |  | MT-4 | 0.04 µM
Cc1cn([C@H]2C=C[C@@H](CO)O2)c(=O)[nH]c1=O | NNRTI-resistant (RT K103N Y181C) | RT-K103N Y181C | MT-4 | 1.8 µM
Fc1cccc(F)c1[C@@H]1SCc2nc3ccccc3n21 | NDK |  | MT-4 | 0.2 µg/mL
CC(C)=CCN1C(=O)c2cccn2S(=O)(=O)c2ccc(Cl)cc21 | IIIB |  | MT-4 | >300 µM
Cc1cn([C@H]2C[C@H](N=[N+]=[N-])[C@@H](CO)O2)c(=O)[nH]c1=O | AOM |  | MT-4 | 3.7 µM
CCc1c(Cc2cc(C)cc(C)c2)n(COCCO)c(=O)[nH]c1=O | IIIB |  | MT-4 | 0.015 µM
CCC(C)Oc1cc(N)nc(S(=O)(=O)c2cc(C)cc(C)c2)n1 | IIIB |  | MT-4 | >70 µM
CC(C)(C)NC(=O)[C@@H]1CN(Cc2cccnc2)CCN1C[C@@H](O)C[C@@H](Cc1ccccc1)C(=O)N[C@H]1c2ccccc2C[C@H]1O | NL4-3 PR-S12T I15V I19L M36I R41K H69K L89M I93L CLONE 6( C ) |  | MT-4 | 0.0064 µM
Nc1ccn([C@H]2CC[C@@H](CO)O2)c(=O)n1 | Recombinant mutant | RT-A98S E138A | MT-4 | 2.512 µM
Cc1cn([C@H]2C=C[C@@H](COC(=O)NCCSC(=O)OC[C@@H]3CC[C@H](n4cnc5c(=O)[nH]cnc54)O3)O2)c(=O)[nH]c1=O | NNRTI-resistant (RT K103N Y181C) | RT-K103N Y181C | MT-4 | >20 µM
Cc1c(O)cccc1C(=O)N[C@@H](CSc1ccccc1)[C@H](O)CN1C[C@H]2CCCC[C@H]2C[C@H]1C(=O)NC(C)(C)C | RF2802 (PR-V82F I84V) | PR-V82F I84V | MT-4 | 0.068 µM
C1CNCCNCCCN(CCCN2CCCNCCNCCCNCC2)CCNC1 | NL4-3 |  | MT-4 | 0.35 µg/mL
Nc1cc(S(=O)(=O)c2ccccc2)nc(Cl)n1 | IIIB |  | MT-4 | >10 µM
CC(=O)O[C@@]12C[C@@H](C)[C@@]3(O)[C@@H](C=C(CO)C[C@]4(O)C(=O)C(C)=C[C@@H]34)[C@@H]1C2(C)C | IIIB |  | MT-4 | 0.09 µg/mL
c1cc(CN2CCCNCCNCCCNCC2)ccc1CN1CCCNCCNCCCNCC1 | AOM |  | MT-4 | 0.5 µM
CCOCn1c(Sc2cc(C)cc(C)c2)c(CC)c(=O)[nH]c1=O | IIIB |  | MT-4 | 0.0062 µM
CC(C)=CCN1Cc2cccc3[nH]c(=O)n(c23)CC1C | IIIB |  | MT-4 | 13 µM
CCC(C)Oc1cc(N)nc(Sc2cc(C)cc(C)c2)n1 | IIIB |  | MT-4 | >88 µM
CC(C)CN(C[C@@H](O)[C@H](Cc1ccccc1)NC(=O)O[C@H]1CCOC1)S(=O)(=O)c1ccc(N)cc1 | NL4-3 | PR-M46I V82T I84V 10R 63P | MT-4 | 0.099 µM
COc1ccc(S(=O)(=O)N(CC(C)C)C[C@@H](O)[C@H](Cc2ccccc2)NC(=O)O[C@H]2CO[C@H]3OCC[C@H]32)cc1 | LAI Laboratory isolate |  | MT-2 | 0.0003 µM
c1cc(CN2CCCNCCNCCCNCC2)ccc1CN1CCCNCCNCCCNCC1 | NL4-3 |  | MT-4 | 0.01 µM
COc1cc(CN2CCCNCCNCCCNCC2)c(OC)cc1CN1CCCNCCNCCCNCC1 | NL4-3 | AMD3100-resistant | MT-4 | 0.24 µg/mL
CC(C)(C)NC(=O)[C@@H]1CN(Cc2cccnc2)CCN1C[C@@H](O)C[C@@H](Cc1ccccc1)C(=O)N[C@H]1c2ccccc2C[C@H]1O | NL4-3 Laboratory clone |  | MT-2 | 0.011 µM
CCn1c(=O)c(C)cn([C@@H]2O[C@H](CO[Si](C)(C)C(C)(C)C)C3(OS(=O)(=O)C=C3N)[C@H]2O[Si](C)(C)C(C)(C)C)c1=O | Recombinant mutant | RT-A98S | MT-4 | 0.025 µM
c1cc(CN2CCCNCCCNCCNCCC2)cc(CN2CCCNCCCNCCNCCC2)c1 | AOM |  | MT-4 | 0.56 µg/mL
CCC(C)Oc1nc(N)cc(Sc2cc(C)cc(C)c2)n1 | IIIB |  | MT-4 | >117 µM
c1ccc(C2OCc3nc4ccccc4n32)cc1 | Pyridinone-resistant (RT Y181C) | RT-Y181C | CEM | ≥16.9 µM
C[C@H](C[n+]1c[nH]c2c(NCCCC3CCCCC3)nc(N)nc21)OCP(=O)(O)O | IIIB |  | CEM | 2 µg/mL
Cc1cn([C@H]2C[C@H](N=[N+]=[N-])[C@@H](CO)O2)c(=O)[nH]c1=O | IIIB |  | MT-4 | 0.01 µM
CN(C)c1ncnc2c1ncn2CCOCP(=O)(O)O | IIIB |  | CEM | >100 µg/mL
Cc1c(O)cccc1C(=O)N[C@@H](CSc1ccccc1)[C@H](O)CN1C[C@H]2CCCC[C@H]2C[C@H]1C(=O)NC(C)(C)C | NL4-3 B |  | MT-4 | 0.062 µM
CC1CCN(CCCN2c3ccccc3NCc3cccn32)CC1 | IIIB |  | MT-4 | >62 µM
Nc1nc(=O)n([C@H]2CS[C@@H](CO)O2)cc1F | RF | RT-M184I | MT-4 | 7.07 µM
Cc1cn([C@H]2C=C[C@@H](COC(=O)NCCSC(=O)OC[C@@H]3C=C[C@H](n4cc(C)c(=O)[nH]c4=O)O3)O2)c(=O)[nH]c1=O | EFV-resistant (RT K103R V179D P225H) | RT-K103R V179D P225H | MT-4 | 14 µM
Fc1cccc(F)c1C1SCc2nc3ccccc3n21 | TIBO R82150-resistant (RT K103N) | RT-K103N | CEM | 15.6 µM
Cc1cn([C@H]2C[C@H](N=[N+]=[N-])[C@@H](CO)O2)c(=O)[nH]c1=O | IIIB |  | MT-4 | 0.0015 µM
CCc1c(Sc2cc(C)cc(C)c2)n(COCc2ccccc2)c(=S)[nH]c1=O | IIIB |  | MT-4 | 0.0076 µM
C1CNCCNCCCN2CCCNCCNCCCN(C1)CC2 | NL4-3 |  | MT-4 | 7.18 µg/mL
Cc1cn([C@H]2C[C@H](N=[N+]=[N-])[C@@H](CO)O2)c(=O)[nH]c1=O | 205 |  | CEM + CEM-SS | 0.006 µM
O=[N+]([O-])c1cc(CN2CCCNCCNCCCNCC2)cc(CN2CCCNCCNCCCNCC2)c1 | NL4-3 | AMD3100-resistant | MT-4 | 3 µg/mL
Nc1ccn([C@H]2CC[C@@H](CO)O2)c(=O)n1 | IIIB |  | MT-4 | 0.137 µM
Cc1ccnc2c1NC(=O)c1cccnc1N2C1CC1 | IIIB | RT-E138K | MT-4 | 0.024 µM
CCN(C)c1nc(N)nc2c1ncn2CCOCP(=O)(O)O | IIIB |  | CEM | 0.55 µg/mL
CCC(C)Oc1cc(N)nc(Sc2cccc(Cl)c2)n1 | IIIB |  | MT-4 | 29 µM
Cc1cn([C@H]2C[C@H](N=[N+]=[N-])[C@@H](CO)O2)c(=O)[nH]c1=O | NL4-3 |  | MT-4 | 0.004 µg/mL
CC(C)(C)NC(=O)[C@@H]1C[C@@H]2CCCC[C@@H]2CN1C[C@@H](O)[C@H](Cc1ccccc1)NC(=O)[C@H](CC(N)=O)NC(=O)c1ccc2ccccc2n1 | LAI Laboratory isolate |  | MT-2 | 0.023 µM
CC(C)=CCN1Cc2cc(Cl)cc3[nH]c(=S)n(c23)C[C@@H]1C | IIIB Recombinant wild type |  | MT-4 | 0.149 µM
CCOCn1c(Cc2cc(C)cc(C)c2)c(CC)c(=O)[nH]c1=O | IIIB |  | MT-4 | 0.0022 µM
COc1cc(C=Nc2nsc3ccccc23)ccc1O | IIIB |  | MT-4 | >6 µM
C[C@H](C[n+]1c[nH]c2c(Nc3ccoc3)nc(N)nc21)OCP(=O)(O)O | IIIB |  | MT-4 | 10 µg/mL
CCOC(=O)C1c2cccn2N(C)c2ccccc2N1C(=O)CCl | IIIB |  | MT-4 | >6 µM
CCC(C)Oc1cc(=O)[nH]c(Sc2ccccc2C)n1 | IIIB |  | MT-4 | 37 µM
Clc1cccc(C=Nc2nsc3ccccc23)c1 | IIIB |  | MT-4 | >9 µM
C[C@H](CC1CNC2C1OC(N)CN2N)OCP(=O)(O)O | IIIB |  | MT-4 | >100 µg/mL
CCC(C)Oc1cc(=O)[nH]c(Sc2cc(C)cc(C)c2)n1 | IIIB |  | MT-4 | 35 µM
CC(C)CN(C[C@@H](O)[C@H](Cc1ccccc1)NC(=O)O[C@H]1CCOC1)S(=O)(=O)c1ccc(N)cc1 | NL4-3 Laboratory clone |  | MT-2 | 0.023 µM
CN=C1CN=C(c2ccc[nH]2)c2cc(Cl)ccc2N1 | IIIB |  | CEM | 0.95 µM
CCC(C)Oc1cc(=O)[nH]c(Sc2ccc(OC)cc2)n1 | IIIB |  | MT-4 | >300 µM
COc1ccc(C=Nc2nsc3ccc(C)cc23)cc1 | IIIB |  | MT-4 | >5 µM
O=C1c2cccn2S(=O)(=O)c2ccccc2N1CC1CC1 | IIIB |  | MT-4 | 32 µM
Cc1cn([C@H]2C=C[C@@H](CO)O2)c(=O)[nH]c1=O |  | RT-Q151M V75I | MT-2 | 18 µM
O=[N+]([O-])CC1Nc2ccccc2S(=O)(=O)n2cccc21 | IIIB |  | MT-4 | >7 µM
COc1ccc(C=Nc2nsc3ccccc23)cc1 | IIIB |  | MT-4 | >7 µM
c1ccc(-c2cc(CN3CCCNCCNCCCNCC3)cc(CN3CCCNCCNCCCNCC3)c2)cc1 | NL4-3 |  | MT-4 | 0.2 µg/mL
CN1c2ccccc2N2C(=O)CN(CCN3CCCCC3)C(=O)C2c2cccn21 | IIIB |  | MT-4 | 189 µM

Conditions beyond the fields shown may differ between rows. An empty or dashed field is not shown.